Source: ChEMBL document CHEMBL1123150, “Synthetic and conformational studies on anatoxin-a: a potent acetylcholine agonist” (1985)

Assay: Ionization constant was determined

CC(=O)C1=CCCC2CCC1N2 (stereo unspecified)
pKa: 9.4
